Data: patent US6391897B2, “Biphenyl oxo-acetic acids useful in the treatment of insulin resistance and hyperglycemia” (American Home Products Corporation, priority 1998, dated 2002)

Test system: rat hepatic microsomal PTPases
Assay: Inhibition of tri-phosphorylated insulin receptor dodecaphosphopeptide dephosphorylation by rat hepatic PTPases (malachite green)
Type: biochemical
Details: rat hepatic microsomal PTPase activity; compound at 50 μM

In the case of Phenylarsine oxide, the “% Change from Control” value is reported as −57%.
